Earlier results as cited in patent publication US6015808A, “Synthesis of pharmaceutical compositions with lactams and β-lactams/oxo thia azabicyclo compounds” (priority 1995, dated 2000).

Tested on: MAC strain 101 in mouse peritoneal macrophages or J774-A cell lines
Conditions: cited from earlier work

Structure (SMILES): NCC[C@H](O)C(=O)N[C@@H]1C[C@H](N)[C@@H](O[C@H]2O[C@H](CN)[C@@H](O)[C@H](O)[C@H]2O)[C@H](O)[C@H]1O[C@H]1O[C@H](CO)[C@@H](O)[C@H](N)[C@H]1O [amikacin]
- activity against MAC inside macrophages (earlier studies): did not exhibit any activity against MAC inside macrophages
